What is called Kd is the equilibrium constant for the complex coming apart. A low value points to a tighter complex.

Drawing on paper PMC8571316 (Scientific Reports, 2021), this text covers Kd for one substance.

For this experiment, the target named is top four peptide candidates. The experiment in a line: BLI. For orientation: In BLI a coated tip is dipped into the sample, and binding shifts an interference pattern.

“SARS-CoV-2 S1 protein (His-tag, #S1N-C52H3, Acro Biosystems) (domain or fragment)” came in with a Kd of 0.1 to 0.25 µM.
